Laboratory results: PubChem BioAssay AID624099 (ICCB-Longwood, 2012)
Aim: 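Knock-downs relieving repression by E2 of an HPV18 LCR luciferase reporter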 (primary screen). System: human C33A cervical carcinoma cells (HPV-negative) stably expressing BPV1 E2 and an HPV18 LCR luciferase reporter. Reagent: siRNA pool against human genes, 40 nM. Timing: 72 h. Read-out: 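Per-well luciferase luminescence, z-scored on each plate against the plate mean and SD with control wells left out, then averaged across three replicate plates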. Reading the numbers: mean z-score and z-score: higher = stronger reporter signal, weaker E2 silencing. Hit rule: 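Mean z ≥ 2 together with z ≥ 2 in two or more of the three replicates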.
The deposit covers about 21,000 reagents; below is a part drawn at random. 497 of them (2.4%) were called active. 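Higher z means weaker E2 silencing; only reporter increases were scored, and knock-downs that hurt cell survival may mask genuine repressor factors.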 A number with no mark means an inactive call.

The opening 2 entries as a preview:
KIFC2
- mean z-score: 0.03
- z-score, replicate A: 0.1
- z-score, replicate B: -0.03
- z-score, replicate C: 0.02

PKP3
- mean z-score: -0.55
- z-score, replicate A: -0.79
- z-score, replicate B: -0.63
- z-score, replicate C: -0.23

Main list, repeating the preview:
KIFC2
- mean z-score: 0.03
- z-score, replicate A: 0.1
- z-score, replicate B: -0.03
- z-score, replicate C: 0.02

PKP3
- mean z-score: -0.55
- z-score, replicate A: -0.79
- z-score, replicate B: -0.63
- z-score, replicate C: -0.23

CRBN
- mean z-score: 0.1
- z-score, replicate A: -0.51
- z-score, replicate B: 0.44
- z-score, replicate C: 0.38

GPR139
- mean z-score: -0.01
- z-score, replicate A: 0.35
- z-score, replicate B: 0.34
- z-score, replicate C: -0.72

LOC389028 (retired record)
- mean z-score: -1.22
- z-score, replicate A: -1.44
- z-score, replicate B: -1.15
- z-score, replicate C: -1.07

PLXND1
- mean z-score: 0.11
- z-score, replicate A: 0.36
- z-score, replicate B: 0.34
- z-score, replicate C: -0.36

WNT16
- mean z-score: 0.31
- z-score, replicate A: 0.11
- z-score, replicate B: 0.27
- z-score, replicate C: 0.55

WDR70
- mean z-score: 0.32
- z-score, replicate A: 0.84
- z-score, replicate B: 0.28
- z-score, replicate C: -0.17

FOXO3
- mean z-score: -1.23
- z-score, replicate A: -0.94
- z-score, replicate B: -1.53
- z-score, replicate C: -1.22

MRPL38
- mean z-score: 0.33
- z-score, replicate A: 0.79
- z-score, replicate B: 0.16
- z-score, replicate C: 0.05

GMDS
- mean z-score: 0.34
- z-score, replicate A: -0.4
- z-score, replicate B: 0.37
- z-score, replicate C: 1.07

APH1A
- mean z-score: -0.25
- z-score, replicate A: -0.65
- z-score, replicate B: -0.15
- z-score, replicate C: 0.06

ZNF302
- mean z-score: -1.31
- z-score, replicate A: -1.3
- z-score, replicate B: -1.38
- z-score, replicate C: -1.26

USP16
- mean z-score: -0.3
- z-score, replicate A: -0.57
- z-score, replicate B: -0.32
- z-score, replicate C: 0
